We go through one compound from ChEMBL document CHEMBL4118106 (J Med Chem, 2018).

Common to all, as to assay type: ADME, organism-based
What all share (details): in vivo

Data set [1] has as its system Rattus norvegicus. The data set is described as follows: AUC (0 to t) in Sprague-Dawley rat at 4 mg/kg, iv by LC-MS/MS analysis.
The test system of data set [2] is Rattus norvegicus. The data set is described as follows: Cmax in Sprague-Dawley rat at 4 mg/kg, iv by LC-MS/MS analysis. Set-up: dose 4 mg/kg, route intravenous.
Data set [3] relates to Rattus norvegicus. Kind of data set: Half life in Sprague-Dawley rat at 4 mg/kg, iv by LC-MS/MS analysis.
In data set [4] the test system is Rattus norvegicus. The data set is described as follows: MRT (0 to t) in Sprague-Dawley rat at 4 mg/kg, iv by LC-MS/MS analysis.
Data set [5] deals with Rattus norvegicus. Kind of data set: Volume of distribution in Sprague-Dawley rat at 4 mg/kg, iv by LC-MS/MS analysis.
Data set [6] has as its system Rattus norvegicus. The data set is described as follows: Clearance in Sprague-Dawley rat at 4 mg/kg, iv by LC-MS/MS analysis.

A word on the Cmax: it is the highest concentration seen after dosing. What is called Vd is the apparent volume that relates the amount in the body to the concentration in plasma or blood. Low values mean confinement near the circulation, high ones extensive tissue distribution. A word on the clearance: it is the rate of elimination divided by the concentration.

With `CC[C@H](C)[C@H](NC(=O)[C@H](Cc1ccc(O)cc1)NC(=O)[C@H](CO)NC(=O)[C@H](CCC(=O)O)NC(=O)[C@H](CCC(=O)O)NC(=O)[C@H](CC(C)C)NC(=O)[C@H](CCCCN)NC(=O)[C@H](CCCCN)NC(=O)[C@@H](NC(=O)[C@@H](NC(=O)[C@H](CCC(=O)O)NC(=O)[C@H](CCC(=O)O)NC(=O)[C@H](CC(C)C)NC(=O)[C@H](CCCCN)NC(=O)[C@H](CCCCN)NC(=O)[C@H](CCSC)NC(=O)[C@H](CCC(=O)O)NC(=O)[C@H](Cc1ccc(O)cc1)NC(=O)[C@H](CCC(=O)O)NC(=O)[C@H](CC(C)C)NC(=O)[C@H](CC(=O)O)NC(=O)[C@H](CC(C)C)NC(=O)[C@H](CC(C)C)NC(=O)[C@@H](NC(=O)[C@@H](NC(=O)[C@H](CC(N)=O)NC(=O)[C@@H](NC(=O)[C@H](CCC(N)=O)NC(=O)[C@@H](NC(=O)[C@H](CC(C)C)NC(=O)[C@H](CO)NC(C)=O)[C@@H](C)O)[C@@H](C)CC)[C@@H](C)O)[C@@H](C)O)C(C)C)C(C)C)C(=O)N[C@@H](CC(=O)O)C(=O)N[C@@H](CC(C)C)C(=O)N[C@@H](CCCCN)C(=O)N[C@@H](CCC(=O)O)C(=O)N[C@@H](CC(C)C)C(N)=O`, the AUCt in data set [1] amounted to 3350 ng·h/mL. Besides, the Cmax in data set [2] was determined as 17000 ng/mL. In data set [3], this compound returned a t1/2 of 1.54 h. The compound further displayed an MRT(t) in data set [4] of 1.34 h. For the same compound, the volume of distribution (Vd) in data set [5] stood at 2.19 L/kg. The same compound yielded a clearance in data set [6] of 17.3 mL/min/kg.
